Measured values from several laboratories, pooled; numbers as filed in NIAID ChemDB.

Shared fields: whole-cell or culture tests; agent: Coxsackie virus

Rows are shuffled and stem from different studies.

SMILES | read by | strain | cell line | measure | result
Cc1cn([C@@H]2C[C@H](CO)[C@H](O)C2)c(=O)[nH]c1=O | cytopathic effect | TYPE B4 | HeLa | EC50 | >400 µg/mL
CN1C(=O)[C@]23CC4=CC=C[C@H](O)[C@H]4N2C(=O)[C@@]1(CO)SSSS3 | - | TYPE A21 | HeLa | EC50 | 0.8 µg/mL
CCSc1nsc(-c2ccccc2)c1C#N | plaque count | TYPE B1 | HEP-2 | EC50 | >100 µg/mL
CC(=O)OC1C=COC=C2C[C@@]34SC(=O)S[C@]5(CC6=COC=CC(OC(C)=O)C6N5C3=O)C(=O)N4C21 | - | TYPE A21 | HeLa | EC50 | 0.5 µg/mL
C[C@H]1C[C@@H](n2cnc3c(N)ncnc32)[C@H](O)[C@@H]1O | cytopathic effect | TYPE B4 | VERO | EC50 | >100 µg/mL
N#Cc1cn([C@@H]2O[C@H](CO)[C@@H](O)[C@H]2O)c2ncnc(N)c12 | cytopathic effect | TYPE B4 | VERO | EC50 | ≥0.04 µg/mL
NC(=O)c1ccnc([C@@H]2O[C@H](CO)[C@@H](O)[C@H]2O)c1 | cytopathic effect | TYPE B4 | HeLa | EC50 | >400 µg/mL
OC[C@H]1O[C@@H](n2cnc3cc(Cl)c(Cl)cc32)[C@@H](O)[C@H]1O | cytopathic effect | TYPE B4 | HeLa | EC50 | >100 µg/mL
CN=C1NC(=O)C(Cc2c[nH]c3ccccc23)S1 | plaque count | TYPE B1 | HeLa | EC50 | 100 µg/mL
NC(=O)c1cn([C@@H]2O[C@H](CO)[C@@H](O)[C@H]2O)c2ncnc(N)c12 | cytopathic effect | TYPE B4 | HeLa | EC50 | ≥0.4 µg/mL
NC(=O)c1ncn([C@@H]2O[C@H](CO)[C@@H](O)[C@H]2O)c1C#CCCO | cytopathic effect | TYPE B4 | HeLa | EC50 | >200 µg/mL
CSc1nsc(-c2ccccc2)c1C(=O)O | plaque count | TYPE B1 | HEP-2 | EC50 | >500 µg/mL
Nc1ncnc2c1ccn2[C@@H]1O[C@H](CO)[C@H](O)[C@H]1O | cytopathic effect | TYPE B4 | HeLa | EC50 | ≥4 µg/mL
N#Cc1c(SCCCBr)nsc1-c1ccccc1 | plaque count | TYPE B1 | HEP-2 | EC50 | >25 µg/mL
CCO[C@@]12CC3=COC=CC(OC(C)=O)C3N1C(=O)[C@]1(S)CC3=COC=CC(OC(C)=O)C3N1C2=O | - | TYPE A21 | HeLa | EC50 | 5.8 µg/mL
OC[C@H]1O[C@@H](n2cnc3cc(Cl)c(Cl)cc32)[C@H](O)[C@@H]1O | cytopathic effect | TYPE B4 | HeLa | EC50 | >10 µg/mL
Nc1nc2c(ncn2C[C@H]2CC[C@@H](CO)C2)c(=O)[nH]1 | cytopathic effect | TYPE B4 | VERO | EC50 | >200 µg/mL
Nc1ncnc2c([C@@H]3O[C@H](CO)[C@@H](O)[C@H]3O)[nH]nc12 | cytopathic effect | TYPE B4 | VERO | EC50 | ≥10 µg/mL
Nc1ncnc2c1ncn2[C@H]1[C@H](O)[C@H](O)[C@]2(CO)O[C@H]12 | cytopathic effect | TYPE B4 | VERO | EC50 | 2 µg/mL
C[N+]1(CC[N+]2(C)CCN(c3ncnc(Cl)c3[N+](=O)[O-])CC2)CCN(c2ncnc(Cl)c2[N+](=O)[O-])CC1 | cytopathic effect | B3 | HeLa | EC50 | >70 µg/mL
Nc1cc(OCCOCP(=O)(O)O)nc(N)n1 | cytopathic effect | TYPE B4 | - | EC50 | >190 µM
NC(=O)c1ncn([C@@H]2O[C@H](CO)[C@@H](O)[C@H]2O)n1 | cytopathic effect | TYPE B4 | HeLa | EC50 | 20 µg/mL
OCCOC([C@H](O)CO)n1cnc2cc(Cl)c(Cl)cc21 | cytopathic effect | TYPE B4 | HeLa | EC50 | >200 µg/mL
CCOC(=O)C(CCSC[C@H]1O[C@@H](n2ccc3c(N)ncnc32)[C@H](O)[C@@H]1O)NC(=O)COC | cytopathic effect | TYPE B4 | HeLa | EC50 | 150 µg/mL
Nc1ncnc2c1ncn2[C@@H]1C=C[C@@H](O)[C@H]1O | cytopathic effect | TYPE B4 | VERO | EC50 | >200 µg/mL
NC(=O)c1csc([C@@H]2O[C@H](CO)[C@@H](O)[C@H]2O)n1 | cytopathic effect | TYPE B1/HA201468 | VERO | EC50 | 130 µg/mL
Nc1ncnc2c1ncn2C[C@H](O)CO | cytopathic effect | TYPE B4 | HeLa | EC50 | >400 µg/mL
COC(=O)c1c(SC)nsc1-c1ccccc1 | plaque count | TYPE B1 | HEP-2 | EC50 | >100 µg/mL
Cc1cn([C@@H]2CC[C@H](CO)C2)c(=O)[nH]c1=O | cytopathic effect | TYPE B4 | VERO | EC50 | >400 µg/mL
O=C1C=COC=C2C[C@@]34SS[C@]5(CC6=COC=CC(O)C6N5C3=O)C(=O)N4C12 | - | TYPE A21 | HeLa | EC50 | 0.06 µg/mL
O=[N+]([O-])c1cc(Cl)c(Cl)cc1[N+](=O)[O-] | cytopathic effect | TYPE B4 | HeLa | EC50 | >4 µg/mL
CC1(Cn2cnc3c(N)nc(Cl)nc32)CC1CO | - | TYPE B3 | - | EC50 | 43.49 µg/mL
Cc1nc(N2CCC[N+]3(CC2)CC[N+]2(CCCN(c4nc(C)nc5c4no[n+]5[O-])CC2)CC3)c2c(no[n+]2[O-])n1 | cytopathic effect | B3 | HeLa | EC50 | >70 µg/mL
N#Cc1c(SCCO)nsc1-c1ccccc1 | plaque count | TYPE B1 | HEP-2 | EC50 | >5 µg/mL
CSS[C@@]12CC3=COC=CC(OC(C)=O)C3N1C(=O)[C@]1(SSC)CC3=COC=CC(OC(C)=O)C3N1C2=O | - | TYPE A21 | HeLa | EC50 | 0.07 µg/mL
C[C@H](c1c[nH]c2ccccc12)[C@@H]1SC(=NCCO)NC1=O | plaque count | TYPE B1 | HeLa | EC50 | 16 µg/mL
N#Cc1c(SCCCCBr)nsc1-c1ccccc1 | plaque count | TYPE B1 | HEP-2 | EC50 | >25 µg/mL
Nc1nccc2c1ncn2[C@@H]1C[C@H](CO)[C@@H](O)[C@H]1O | cytopathic effect | TYPE B4 | VERO | EC50 | 1 µg/mL
Nc1ncnc2c1c(Br)cn2[C@@H]1O[C@H](CO)[C@@H](O)[C@H]1O | cytopathic effect | TYPE B4 | HeLa | EC50 | 0.2 µg/mL
Nc1ncnc2c1ncn2CCOCP(=O)(O)O | cytopathic effect | TYPE B4 | - | EC50 | >185 µM
O=c1[nH]cnc2c1ncn2[C@@H]1C=C(CO)[C@@H](O)[C@H]1O | cytopathic effect | TYPE B4 | VERO | EC50 | 7 µg/mL
Nc1cc(OC[C@H](CO)OCP(=O)(O)O)nc(N)n1 | cytopathic effect | TYPE B4 | - | EC50 | >15 µM
CN1C(=O)[C@]23CC4=CC=C[C@H](O)[C@H]4N2C(=O)[C@@]1(CO)SS3 | - | TYPE A21 | HeLa | EC50 | 0.003 µg/mL
Nc1ncnc2c1ncn2[C@@H]1C=C(CO)[C@@H](O)[C@H]1O | - | TYPE B4 | - | MIC | >10 µg/mL
Nc1ncnc2c1ncn2C[C@H](O)CO | cytopathic effect | TYPE B4 | VERO | EC50 | 40 µg/mL
Nc1nc(N)c2nnn(C[C@H]3CC[C@@H](CO)C3)c2n1 | cytopathic effect | TYPE B4 | HeLa | EC50 | >200 µg/mL
Nc1nccc2c1ncn2[C@@H]1O[C@H](CO)[C@@H](O)[C@H]1O | cytopathic effect | TYPE B4 | HeLa | EC50 | ≥40 µg/mL
Nc1ncnc2c1ncn2[C@@H]1C=C(CO)[C@@H](O)[C@H]1O | cytopathic effect | TYPE B4 | HeLa | EC50 | >10 µg/mL
C[N+]1(C)CCN(c2ncnc(Cl)c2[N+](=O)[O-])CC1 | cytopathic effect | B3 | HeLa | EC50 | >70 µg/mL
Nc1ncnc2c1ccn2[C@H]1C[C@H](O)[C@@H](CO)O1 | cytopathic effect | TYPE B4 | HeLa | EC50 | >400 µg/mL
Nc1nc(N)c2ncn(C[C@H]3CC[C@@H](CO)C3)c2n1 | cytopathic effect | TYPE B4 | VERO | EC50 | >200 µg/mL
Nc1ccn([C@@H]2C[C@H](CO)[C@@H](O)[C@H]2O)c(=O)n1 | cytopathic effect | TYPE B4 | HeLa | EC50 | >400 µg/mL
OC[C@H]1O[C@@H](n2cnc3cc(Cl)c(Cl)cc32)[C@@H](O)[C@@H]1O | cytopathic effect | TYPE B4 | HeLa | EC50 | >10 µg/mL
CCOC(=O)OC1C=COC=C2C[C@@]34SS[C@]5(CC6=COC=CC(OC(=O)OCC)C6N5C3=O)C(=O)N4C21 | - | TYPE A21 | HeLa | EC50 | 0.08 µg/mL
C#Cc1c(C(N)=O)ncn1[C@@H]1O[C@H](CO)[C@@H](O)[C@H]1O | cytopathic effect | TYPE B4 | HeLa | EC50 | 2 µg/mL
Nc1nc(Cl)c2ncn(C[C@H]3CC[C@@H](CO)C3)c2n1 | cytopathic effect | TYPE B4 | HeLa | EC50 | >10 µg/mL
Cc1cn([C@H]2C[C@@H](CO)[C@H](O)C2)c(=O)[nH]c1=O | cytopathic effect | TYPE B4 | HeLa | EC50 | >100 µg/mL
NC(=O)c1ncn([C@@H]2O[C@H](CO)[C@@H](O)[C@H]2O)c1C#Cc1ccccc1 | cytopathic effect | TYPE B4 | HeLa | EC50 | >200 µg/mL

Repeating the final 3 entries:

Nc1nc(Cl)c2ncn(C[C@H]3CC[C@@H](CO)C3)c2n1 ; read by: cytopathic effect ; strain: TYPE B4 ; cell line: HeLa ; measure: EC50 ; result: >10 µg/mL
Cc1cn([C@H]2C[C@@H](CO)[C@H](O)C2)c(=O)[nH]c1=O ; read by: cytopathic effect ; strain: TYPE B4 ; cell line: HeLa ; measure: EC50 ; result: >100 µg/mL
NC(=O)c1ncn([C@@H]2O[C@H](CO)[C@@H](O)[C@H]2O)c1C#Cc1ccccc1 ; read by: cytopathic effect ; strain: TYPE B4 ; cell line: HeLa ; measure: EC50 ; result: >200 µg/mL

ECn is the concentration giving n% inhibition of infection, replication or growth. Blank or dashed fields: not listed here.